Molecular target: globular domain of mouse prion protein (Mus musculus, UniProt P04925)
Experiment: crystal structure

The chains behind the UniProt entries cited, without tags or fusion partners.
UniProt P04925, whole entry, looked up, tested part not stated: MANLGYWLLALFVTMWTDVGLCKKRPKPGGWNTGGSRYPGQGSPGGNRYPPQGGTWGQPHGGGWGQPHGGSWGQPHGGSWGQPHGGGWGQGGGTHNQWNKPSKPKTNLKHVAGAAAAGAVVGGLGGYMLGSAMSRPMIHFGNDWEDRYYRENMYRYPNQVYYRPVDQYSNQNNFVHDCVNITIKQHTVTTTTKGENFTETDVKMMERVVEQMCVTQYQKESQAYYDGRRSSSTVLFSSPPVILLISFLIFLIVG

B1: Fab fragment of the anti-prion monoclonal antibody POM1 (Fab, V domains shown)
VH: QVQLQQSGTELVMPGASVKMSCKASGYTFTDYWMHWVKQRPGQGLEWIGSIDPSDSYTSHNEKFKGKATLTVDESSSTAYMQLSSLTSEDSAVYFCSRSGYGYYAMEYWGQGTSVTVSS
VL: DIVLTQSPAILSVSPGERVSFSCRASQNIGTSIHWYQQRTNESPRLIIKYASESISGIPSRFSGSGSGTDFTLSINSVESEDIADYYCQQSNTWPYTFGGGTKLELK
- binding result: binds

Source: publication PMC4031664 (Prion, 2013)
